# PubChem BioAssay AID1259414, Drosophila RNAi Screening Center, 2018
# Screen: 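Fly genes that alter Wolbachia amount inside host cells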 (primary screen)
# Cells: Drosophila JW18 cells infected with Wolbachia
# Knock-down reagent: long dsRNA against Drosophila genes, 0.25 µg dsRNA per well of a 384-well plate
# Duration: 5 days
# Treatment: cells persistently infected with Wolbachia before knock-down; no added drug
# Measurement: 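Imaged fluorescence in situ signal for Wolbachia 23S rRNA per DAPI-counted host cell, given as a robust z-score within each plate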
# Direction: Wolbachia per cell robust z: higher = more Wolbachia per host cell than the plate typical
# Hit rule: 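Hit when robust z is 1.5 or more, or -1.5 or less, in at least two of three replicates; excludes dsRNAs with several or no targets, genes not expressed in JW18 and well A1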
# The deposit covers about 24,000 reagents; this is a random part of those with a known target gene and a result. In the full data, about 1,210 (5%) are marked active. 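Inactive calls also include excluded dsRNAs with several or no targets, genes unexpressed in JW18, and well A1, regardless of score.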 Entries without a mark were called inactive. The numbers tell different reagents against one gene apart. Names joined by + are all predicted targets of the reagent. Reagent sequences are not shown.
gene,reagent no.,"Wolbachia per cell robust z, rep 1","Wolbachia per cell robust z, rep 2","Wolbachia per cell robust z, rep 3"
Act88F (Actin 88F),1,2.01,3.15,1.51
Act88F (Actin 88F),2,-1.66,0.0718,-0.931
Or74a (Odorant receptor 74a),1,-3.35,-0.875,-0.687
fzr (fizzy-related),1,0.838,1.23,0.841
fzr (fizzy-related),2,1.16,1.18,0.581
Acsf3 (Acyl-CoA synthetase family member 3),1,-0.245,0.381,-0.751
Aplip1 (APPL-interacting protein 1),1,0.738 (active),-2.83,-1.62
Aplip1 (APPL-interacting protein 1),2,-2.7 (active),-0.199,-1.76
Aplip1 (APPL-interacting protein 1),3,-0.153,-0.435,1.27
rpr (reaper),1,0.843,0.054,1.9
kra (krasavietz),1,-1.54 (active),-5.6,-0.712
Phae2 (Phaedra 2),1,-0.253,0.988,-0.808
CG15160,1,0.435,0.00968,1.61
CG15160,2,0.665,-0.86,0.0141
CG1440,1,0.934,1.12,-0.926
Ssl1 (Suppressor of stem-loop mutation),1,-2.67,-1.44,0.299
CG18367,1,1.21,0.125,-0.225
CG18367,2,-0.73,-0.174,-0.161
ics (icarus),1,-0.532,-0.136,-1.72
ics (icarus),2,0.12,0.352,-0.232
Rh7 (Rhodopsin 7),1,0.712,0.05,0.601
Rh7 (Rhodopsin 7),2,-1.58,0.125,0.751
CG9304,1,0.356 (active),-1.57,-3.75
CG9304,2,-3.46 (active),0.462,-1.65
CG2150,1,1.04,0.005,-0.152
sba (six-banded),1,0.101,-0.444,1.04
sba (six-banded),2,0.967,-0.925,-0.479
sba (six-banded),3,0.3,0.72,1.03
Snx3 (Sorting nexin 3),1,0.384,-1.98,1.28
Snx3 (Sorting nexin 3),2,0.46,0.314,-0.078
Mad,1,-5.1,-0.418,0.791
Mad,2,0.892,-0.672,0.0543
CG5043,1,1.38,0.306,0.128
CG5043,2,-0.782,-0.267,-0.35
ohgt (ohgata),1,0.0772,-2.73,0.225
ohgt (ohgata),2,-0.303,0.39,-0.0177
Lkr (Leucokinin receptor),1,-2.17,0.122,-0.034
CG43333,1,-0.196,-1.15,-0.547
CG43333,2,-2.33,0.197,-4.01
Dyrk3 (Dual-specificity tyrosine phosphorylation-regulated kinase 3),1,0.673,0.44,0.0554
Pdp (Pyruvate dehydrogenase phosphatase),1,-0.75,-1.4,-0.365
Pdp (Pyruvate dehydrogenase phosphatase),2,0.618,-0.701,1.53
Usp8 (Ubiquitin specific protease 8),1,-0.428,-0.251,-0.521
ca (claret),1,-0.146,-0.874,-0.756
ca (claret),2,0.837,0.938,0.638
ca (claret),3,0.216,-0.362,0.982
CNMaR (CNMamide Receptor),1,1.54,-0.0101,1.28
CNMaR (CNMamide Receptor),2,0.406,-0.95,-0.812
Cnx14D + Cnx99A,1,-5.39,-0.793,-3.84
par-6,1,-5 (active),-1.65,-0.964
par-6,2,-0.588,-0.981,-1.4
CG30480,1,-0.227,0.148,-0.759
CG30480,2,-0.403,-0.743,0.365
lncRNA:CR43144 (long non-coding RNA:CR43144),1,-1.68 (active),-2.79,-1.01
Nup358 (Nucleoporin 358kD),1,-3.3,1.34,0.631
Nup358 (Nucleoporin 358kD),2,0.323,-0.146,1.69
CG5888,1,0.556,1.36,0.665
CG5888,2,1.55,0.923,0.641
sals (sarcomere length short),1,-0.215,-0.598,-0.0478
sals (sarcomere length short),2,0.214,-0.112,-0.0678
sals (sarcomere length short),3,0.8,0.796,0.419
PIP4K (Phosphatidylinositol 5-phosphate 4-kinase),1,0.626,-6.44,-0.0595
CG8209,1,0.385,0.506,0.186
CG8209,2,0.759,-0.942,-0.0206
DIP-gamma (Dpr-interacting protein gamma),1,-1.69,-0.106,0.25
nsr (novel spermatogenesis regulator),1,-0.85,0.376,0.256
nsr (novel spermatogenesis regulator),2,0.894,1.77,0.77
CG4927,1,-0.889,0.671,0.437
CG4927,2,-0.738,-0.0194,-0.363
